Measured values: patent publication US20240368664A1, “LIVE YEAST BIOSENSORS AND METHODS OF USE THEREOF” (priority 2021, published 2024)

Experiments:
CaPep2A = biological target: T1, CaPep2A
T1 chain: GARLTNFGYFEPG

CaPep2A13A = biological target: T2, CaPep2A13A
T2 chain: GARLTNFGYFEPA

B1: Candida albicans Bar1 aspartyl protease (CaBar1) (protein)
chain: MLFTILSLLVPSLAVAVSNTGGAVKLDLTISDEHMYYIENLALGTPPQFISNVIVDSGSSDLMIVDSIYNFSASSSFYNSNQTAIMKYGYGGQFPVYFINETIRSNDWKLSNLSMGLANISDMDSFSGILGIGFTRQELFKTNYSNFPYLLKDQGYTKSVLFSFNGQDQNPSIIFGGIITNIIDGPLVRAPFIKVISFINQLDYWLMPTFTVNQIKLGDTIVSNQKTLYQIDSGTNGFVPPTPVLNNILKILGDDYIQDDNGNIYFDIKYIEGLNITFSVQGYDIGFQLVDIVGDTIERNSTTFVALNVASCDIGYNAYEGLLPNLIFKYHYAIFDYDNAQIYFGKYKNSNGEANVVAVENGYQLPVPTVDVPDVEDTYSVIYIAESETTVTVAPTEVQSTYSSFSISEGTSSNLTSGSTSDDKITSVTSNPQYC
peptide cleavage (CaPep2A): a CaPep mutation in position 2 rendered the peptide non-cleavable | peptide cleavage (CaPep2A13A): retained that property in the CaPep2A13A variant of the cleavable CaPep13A
